Columns and labels:
Settings in all cases: 100 mM potassium phosphate pH 7, 25 °C
del71Cbotu_EstA [1] = biological target: del71Cbotu_EstA (Clostridium botulinum, UniProt A5I055); experiment: p-nitrophenol release, absorbance […] nm, Michaelis-Menten fit
del71Cbotu_EstA [2] = biological target: del71Cbotu_EstA (Clostridium botulinum, UniProt A5I055, S227A)
del71Cbotu_EstA [3] = biological target: del71Cbotu_EstA (Clostridium botulinum, UniProt A5I055, W302H)
del71Cbotu_EstA [4] = biological target: del71Cbotu_EstA (Clostridium botulinum, UniProt A5I055, S155A)
del71Cbotu_EstA [5] = biological target: del71Cbotu_EstA (Clostridium botulinum, UniProt A5I055, F182Y)
del71Cbotu_EstA [6] = biological target: del71Cbotu_EstA (Clostridium botulinum, UniProt A5I055, W157A)
Cbotu_EstA = Cbotu_EstA (Clostridium botulinum, UniProt A5I055)

**Q.** With CCCC(=O)Oc1ccc([N+](=O)[O-])cc1 as the compound, how does the Km (del71Cbotu_EstA [1]) read?
**A.** 1600 µM

**Q.** What about the Km (del71Cbotu_EstA [2]) of the same compound?
**A.** 1200 µM

**Q.** What about the Km (del71Cbotu_EstA [3]) of the same compound?
**A.** 1000 µM

**Q.** And the Km (del71Cbotu_EstA [4])?
**A.** 1700 µM

**Q.** What about the Km (del71Cbotu_EstA [5]) of the same compound?
**A.** 1200 µM

**Q.** And the Km (del71Cbotu_EstA [6])?
**A.** 1600 µM

**Q.** And the Km (Cbotu_EstA)?
**A.** 2500 µM
